The text below walks through data of publication PMC6712400, “Interaction of the Ankyrin H Core Effector of Legionella with the Host LARP7 Component of the 7SK snRNP Complex” (2019).

In the assay the target is c-myc-LARP7 (UniProt Q4G0J3). The assay can be described thus: co-immunoprecipitation (anti-FLAG IP, immunoblot densitometry). To be noted: HEK293T cells transiently transfected with 3XFLAG-AnkH mutant and c-myc-LARP7; parent: 0.2274. A general note: A western blot detects proteins with antibodies after separation by electrophoresis.

As for 3XFLAG-AnkH (from UniProt Q5ZT65) F33A, the response (LARP7/AnkH relative density) was determined as 0.54.
As for 3XFLAG-AnkH (from UniProt Q5ZT65) R96A, the response (LARP7/AnkH relative density) came to 0.898.
